Data taken from article PMC8085991.

System: Nc1nc2c(ncn2[C@@H]2O[C@H](COP(=O)(O)OP(=O)(O)OP(=O)(O)O)[C@@H](O)[C@H]2O)c(=O)[nH]1
Test: purified protein
Settings: 59 nM GST-FlhFBb; GTP 0-100 μM; room temperature

Substance	Km [µM]	Vmax [µmol/min]	kcat [s⁻¹]	kcat/Km [M⁻¹ s⁻¹]
rFlhFBb (BB0270, GST-FlhFBb) (Borreliella burgdorferi B31; K187A)	5.15 ± 0.86	39.4	0.0112	2170
rFlhFBb (BB0270, GST-FlhFBb) (Borreliella burgdorferi B31; R218G)	4.99 ± 1.38	41	0.0117	2340
